Anti-infective test results gathered from many reports (values: NIAID ChemDB through PubChem).

All rows: whole-cell or culture tests; agent: Poliovirus

Percent inhibition refers to the dose given; in toxicity tests it is the harm to the cells.

compound | cell line | endpoint | dose | strain | result
CC(C)C/C=C/[C@@H](COS(=O)(=O)O)[C@H]1CC[C@H]2[C@@H]3CC[C@@H]4[C@H](O)[C@H](OS(=O)(=O)O)CC[C@]4(C)[C@H]3[C@@H](O)C[C@]12C | VERO | inhibition | 10 µg/mL | SABIN (TYPE 3) | 31%
Clc1ccc2c(c1)C=C(c1ccccc1)CO2 | HEP-2 | inhibition | 10 µM | IA (TYPE 2) | 100%
CC(C)/C=C/[C@@H](COS(=O)(=O)O)[C@H]1CC[C@H]2[C@@H]3CC[C@@H]4[C@H](O)[C@H](OS(=O)(=O)O)CC[C@]4(C)[C@H]3[C@@H](O)C[C@]12C | VERO | inhibition | 20 µg/mL | SABIN (TYPE 3) | 29%
Cc1ccc(C(=O)CCCCOc2ccc(C3=NCCO3)cc2)s1 | VERO | EC50 | - | TYPE 3 | 0.17 µM
Clc1ccc(C2COc3ccccc3C2)cc1 | HEP-2 | inhibition | 10 µM | TYPE 2 | 0%
CC(=O)c1ccc2c(c1)Sc1ccccc1O2 | BSC-1 | inhibition | 2 µg/mL | TYPE 3 | 100%
Cc1ccc(C(=O)CCCCCCOc2ccc(C3=NCC(C)O3)cc2)s1 | VERO | EC50 | - | TYPE 3 | 2.62 µM
CC(=O)c1ccc2c(c1)Sc1cc(C(C)=O)ccc1O2 | BSC-1 | inhibition | 0.4 µg/mL | TYPE 3 | 10%
Clc1ccc(C2=Cc3ccccc3OC2)cc1 | HEP-2 | EC50 | - | TYPE 2 | >10 µM
CC(O)c1ccc2c(c1)Cc1ccccc1O2 | BSC-1 | inhibition | 0.4 µg/mL | TYPE 3 | 22%
Cc1ccc(C(=O)CCCCCCOc2ccc(C3=NCCO3)cc2Cl)s1 | VERO | EC50 | - | TYPE 3 | 1.55 µM
CC(=O)c1ccc2c(c1)Sc1ccccc1S2 | BSC-1 | inhibition | 2 µg/mL | TYPE 3 | 69%
Cc1ccc(C(=O)CCCCOc2ccc(C3=NCC(C)O3)cc2)s1 | VERO | EC50 | - | TYPE 2 | 1.73 µM
C1=C(c2ccccc2)COc2ccccc21 | HEP-2 | inhibition | 10 µM | II (TYPE 2) | 93%
CC(C)(O)c1ccc2c(c1)Sc1ccccc1O2 | BSC-1 | inhibition | 2 µg/mL | TYPE 3 | 22%

Again, the opening 2 rows:

compound,cell line,endpoint,dose,strain,result
CC(C)C/C=C/[C@@H](COS(=O)(=O)O)[C@H]1CC[C@H]2[C@@H]3CC[C@@H]4[C@H](O)[C@H](OS(=O)(=O)O)CC[C@]4(C)[C@H]3[C@@H](O)C[C@]12C,VERO,inhibition,10 µg/mL,SABIN (TYPE 3),31%
Clc1ccc2c(c1)C=C(c1ccccc1)CO2,HEP-2,inhibition,10 µM,IA (TYPE 2),100%

Blank or dashed fields: not listed here. ECn is the concentration giving n% inhibition of infection, replication or growth. Neighbouring rows are from separate reports.